{"source": "paper PMC5505994", "about": "(Scientific Reports, 2017)", "binders": {"B1": {"name": "MbAhpC double mutant D22N/K25Q (enzyme)", "chain": "MPLLTIGDQFPAYQLTALIGGNLSQVDAKQPGDYFTTITSDEHPGKWRVVFFWPKDFTFVCPTEIAAFSKLNDEFEDRDAQILGVSIDSEFAHFQWRAQHNDLKTLPFPMLSDIKRELSQAAGVLNADGVADRVTFIVDPNNEIQFVSATAGSVGRNVDEVLRVLDALQSDELCACNWRKGDPTLDAGELLKASA"}, "B2": {"name": "MbAhpC single mutant T5A (enzyme)", "chain": "B1 chain with T5A, N22D, Q25K"}, "B3": {"name": "MbAhpC triple mutant D22N/K25Q/D27N (enzyme)", "chain": "B1 chain with D27N"}, "B4": {"name": "Mycobacterium bovis thioredoxin TrxC (natural protein)", "chain": "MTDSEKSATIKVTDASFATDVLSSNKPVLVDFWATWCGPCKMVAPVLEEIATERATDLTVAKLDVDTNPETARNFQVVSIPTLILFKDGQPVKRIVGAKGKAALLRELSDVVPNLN", "modifications": "15N-labelled"}}, "key": {"SEC": {"target": "the molecule itself", "experiment": "SEC"}, "dynamic light scattering": {"target": "the molecule itself", "experiment": "dynamic light scattering"}, "[1]": {"target": "B3", "experiment": "NMR titration"}, "[2]": {"target": "MbAhpC double mutant T5A/D8A (Mycobacterium bovis (BCG strain), UniProt P9WQB7 1-195, T5A | D8A)", "experiment": "NMR titration"}}, "note": "Positions count from the first letter of the chain named. Numbers in names are those of the source.", "data": [{"binder": "B1", "values": [{"measurement": "binding result", "setting": "SEC", "result": "binds"}]}, {"binder": "B2", "values": [{"measurement": "binding result", "setting": "dynamic light scattering", "result": "binds"}]}, {"binder": "B3", "values": [{"measurement": "binding result", "setting": "SEC", "result": "binds"}]}, {"binder": "B4", "values": [{"measurement": "binding result", "setting": "[1]", "result": "binds"}, {"measurement": "binding result", "setting": "[2]", "result": "binds"}]}]}
